This is a selection; strong and weak results do not stand in their true shares. Inconclusive results are not listed. A call without a number means that no potency is given here. Calls of active or inactive are those of the source. Calls come from the whole dose curve; tested in A549 cells.
Experiment: qHTS for Stage-Specific Inhibitors of Vaccinia Orthopoxvirus: Venus Reporter Primary qHTS; note: nearly all actives have a fitted effect of over 30% in size
Details: Vaccinia virus Venus reporter expression, fluorescence; series mostly up to 36.5 µM
Potency is the fitted concentration of half-maximal effect.

| Compound | activity change, negative = inhibition | Potency |
| --- | --- | --- |
| O=C(OC1CN2CCC1CC2)c1cccc([N+](=O)[O-])c1 (stereo not given) | inactive | – |
| CCOP(C)(=S)SCC(=O)NC(C)C(=O)O (stereo not given) | inactive | – |
| CC1CCOC(=O)C=CC=CC(=O)OC2CC3OC4C5OC5(C)C(O)CC4(COC(=O)C1O)C2(C)C31CO1 (stereo not given) | – | active: 282 nM |
| CCCCOc1ccc(C(=O)NCC2(N3CCCCC3)CCCCC2)cc1OC | inactive | – |
| COP(=O)(OC)N1CC1c1ccccc1 (stereo not given) | inactive | – |
| CC1CCNP(=O)(N(CCCl)CCCl)O1 (stereo not given) | inactive | – |
| CCOC(=O)Nc1ccc([As](=O)(O)O)c(O)c1 | inactive | – |
| O=C(O)C(=O)c1ccc(N(CCCl)CCCl)cc1.c1ccc(Nc2ccccc2)cc1 | inactive | – |
| CP(=O)(Nc1ccccc1Br)Oc1ccccc1 (stereo not given) | inactive | – |
| COc1ccccc1OP(C)(=O)Nc1ccccc1 (stereo not given) | inactive | – |
| O=P(Nc1ccccn1)(c1cccc2ccccc12)c1cccc2ccccc12 | inactive | – |
| Cc1cc(SC(NC=O)C(Cl)(Cl)Cl)ncn1 (stereo not given) | inactive | – |
| CCOC(=O)Nc1cccc([As](=O)(O)O)c1 | inactive | – |
| CP(=S)(Nn1cnnc1)Oc1ccccc1 (stereo not given) | inactive | – |
| Cc1ccc2nc3c(c(C)c2c1)CC(C(Cl)Cl)S3 (stereo not given) | inactive | – |
| Cc1cccc(C)c1OP(C)(N)=O (stereo not given) | inactive | – |
| ClCCN(CCCl)c1ccc(CC2C=CC=C2)cc1 | inactive | – |
| [N-]=[N+]=NC1CCCCC1NC(=O)c1cc([N+](=O)[O-])cc([N+](=O)[O-])c1 (stereo not given) | inactive | – |

| Compound | activity change, negative = inhibition | Potency |
| --- | --- | --- |
| O=[N+]([O-])c1ccc(-c2cc([N+](=O)[O-])c(O)c([N+](=O)[O-])c2)cc1 | inactive | – |
| C[As](=O)(O)c1cccc(C(=O)O)c1 | inactive | – |
| O=[As](O)(c1ccc(O)cc1)c1ccccc1O | inactive | – |
| O=[N+]([O-])c1cc([N+](=O)[O-])c(Nc2cccnc2)c([N+](=O)[O-])c1 | inactive | – |
| Cc1cc(C)cc(OP(C)(N)=O)c1 (stereo not given) | inactive | – |
| COc1ccc(OP(C)(=O)Nc2cccc(F)c2)cc1 (stereo not given) | inactive | – |
| CCN(CC)C(=S)SC(NC=O)C(Cl)(Cl)Cl (stereo not given) | inactive | – |
| O=C(OC1CN2CCC1CC2)c1cccc2[nH]cnc12 (stereo not given) | inactive | – |
| COc1ccccc1OP(C)(=O)Nc1cc(Cl)ccc1C (stereo not given) | inactive | – |
| CC(C)NC(=O)NP(=O)(Oc1ccccc1)Oc1ccccc1 | inactive | – |
| Cc1ccc(NP(C)(=O)Oc2ccccc2)c(C)c1 (stereo not given) | inactive | – |
| COC(=O)C1(C)COP(=O)(N2CCCCCC2)OC1 (stereo not given) | inactive | – |
| COc1ccccc1OP(C)(=O)Nc1ccc(C)cc1 (stereo not given) | inactive | – |
| O=Cc1ccc(NCCCl)cc1 | inactive | – |
| ClCCSc1nnc(-c2cccnc2)o1 | inactive | – |
| CCOC(=O)c1ccc(NP(C)(=O)Oc2ccccc2)cc1 (stereo not given) | inactive | – |
| COc1cc(I)ccc1[As](=O)(O)O | inactive | – |

From PubChem BioAssay AID720580 (National Center for Advancing Translational Sciences (NCATS), 2013)
